Values after ≈ are worked out from the molar mass of the structure shown.
How the values were obtained:
Assay in all cases: microbe, parasite or virus in culture
[1] = test system: Aspergillus fumigatus 64026; conditions: Aspergillus fumigatus, 64026, 72 h, read-out: MIC
[2] = test system: Candida glabrata 648; conditions: Nakaseomyces glabratus
[3] = test system: Candida glabrata 572; conditions: Nakaseomyces glabratus
[4] = test system: Candida glabrata 578; conditions: Nakaseomyces glabratus
[5] = test system: Candida glabrata 646; conditions: Nakaseomyces glabratus
[6] = test system: Candida krusei 603; conditions: Pichia kudriavzevii
[7] = test system: Candida glabrata 566; conditions: Nakaseomyces glabratus
[8] = test system: Candida krusei 638; conditions: Pichia kudriavzevii

## CCCCCCCCCCC[N+](C)(C)[BH-](Br)C#N (centres unmarked) [K-I1, dimethyl-undecyl-amine cyanobromoborane]
[1]
  MIC: 131 µM (≈ 41.5 µg/mL)

## CCCCCCCCCCC[N+](C)(C)[B-](Br)(Br)C#N [K-I2, dimethyl-undecyl-amine cyanodibromoborane]
[2]
  MIC: 20.2 µM (≈ 8 µg/mL)
[1]
  MIC: 79 µM (≈ 31.3 µg/mL)
[3]
  MIC: 40.4 µM (≈ 16 µg/mL)
[4]
  MIC: 40.4 µM (≈ 16 µg/mL)
[5]
  MIC: 20.2 µM (≈ 8 µg/mL)
[6]
  MIC: 10.1 µM (≈ 3.98 µg/mL)
[7]
  MIC: 20.2 µM (≈ 8 µg/mL)
[8]
  MIC: 10.1 µM (≈ 3.98 µg/mL)

## CCCCCCCCCCC[N+](C)(C)[BH-](F)C#N (centres unmarked) [K-I4, dimethyl-undecyl-amine cyanofluoroborane]
[1]
  MIC: 129 µM (≈ 33.1 µg/mL)

## C[N+](C)([BH2-]C#N)CCCCCCCCCC[N+](C)(C)[BH2-]C#N [K-J, N,N,N′,N′-tetramethyldecane-1,10-diamine bis-cyanoborane]
[1]
  MIC: 817 µM (≈ 250 µg/mL)
